From article PMC12415213, “A genome-scale drug discovery pipeline uncovers therapeutic targets and a unique p97 allosteric binding site in Schistosoma mansoni” (Proceedings of the National Academy of Sciences of the …, 2025)

Test system: recombinant S. mansoni p97
Test: In-gel LC-MS/MS of peptides of p97 modified by covalent inhibitors
Set-up: species or system Schistosoma mansoni
Details: 100 μM inhibitor, trypsin digest

| SMILES | Abundance of modified peptide [K].ETVCVAIVDESCPDDKIR.[L] (63-80) | Abundance of modified peptide [K].FGMTPSKGVLFYGPPGCGK.[T] (503-521) | Abundance of modified peptide [K].GVLFYGPPGCGK.[T] (510-521, contains Cys519) | Abundance of modified peptide [K].IANEAHGHVGADLASLCSEAALQQIR.[N] (396-421) | Abundance of modified peptide [R].EDEEEKLNEIGYDDIGGCR.[K] (189-207) | Abundance of modified peptide [R].QAAPCVLFFDELDSIAK.[A] (565-581) | Abundance of modified peptide [K].ATQGFSGADLTEICQR.[A] (675-690) | Abundance of modified peptide [K].LNEIGYDDIGGCR.[K] (195-207) | Abundance of modified peptide [K].LNEIGYDDIGGCRK.[Q] (195-208) | Abundance of modified peptide [K].REDEEEKLNEIGYDDIGGCR.[K] (188-207) | Abundance of modified peptide [K].REDEEEKLNEIGYDDIGGCRK.[Q] (188-208) | Abundance of modified peptide [K].VIETDPSPYCIVSPDTTIHTEGDPVK.[R] (162-187) | Abundance of modified peptide [K].VIETDPSPYCIVSPDTTIHTEGDPVKR.[E] (162-188) | Abundance of modified peptide [K].VIETDPSPYCIVSPDTTIHTEGDPVKREDEEEK.[L] (162-194) |
| --- | --- | --- | --- | --- | --- | --- | --- | --- | --- | --- | --- | --- | --- | --- |
| O=C(C#Cc1ccccc1)Nc1ccc2oc(-c3ccncc3)nc2c1 [Compound 242] | 1.51E+05 | 1.01E+05 | 8.13E+08 | 1.78E+06 | 1.10E+06 | 4.97E+06 |  |  |  |  |  |  |  |  |
| O=C(C#Cc1ccccc1)Nc1ccc2oc(-c3ccccn3)nc2c1 [Compound 243] | 2.02E+06 | 1.53E+06 | 3.54E+09 | 5.64E+07 | 1.48E+07 | 5.59E+06 | 5.89E+06 | 8.32E+06 | 1.47E+07 | 3.26E+06 | 2.02E+06 | 5.08E+06 | 1.29E+07 | 5.90E+05 |
